Experimental data from patent US20250122455A1, “INTEGRATED SYSTEM FOR MULTIPLE CULTIVATIONS OF A BIOLOGICAL AGENT AND METHODS OF USE THEREOF” (The Hong Kong Polytechnic University, priority 2023, published 2025).
Where two headings read alike, the source gives them in different places. Only a part of the results on these compounds is given; other tests are left out.

System: P. aeruginosa biofilms

sodium nitroprusside dihydrate
Induced biofilm dispersal (ΔbdlA/plac-bdlA complementation strain, FIG. 13B): could undergo induced biofilm dispersal
Induced biofilm dispersal (ΔfliM/plac-fliM complementation strain, FIG. 14B): could undergo induced biofilm dispersal
